This is an account of results in article PMC12754631, “Cis‐2‐decenoic acid modulates Pseudomonas aeruginosa virulence through a noncanonical transcriptional regulator” (mLife, 2025).

The target of data set [1] is T1, FadD1 (Pseudomonas aeruginosa PAO1) (UniProt Q9HYU4).
T1 sequence: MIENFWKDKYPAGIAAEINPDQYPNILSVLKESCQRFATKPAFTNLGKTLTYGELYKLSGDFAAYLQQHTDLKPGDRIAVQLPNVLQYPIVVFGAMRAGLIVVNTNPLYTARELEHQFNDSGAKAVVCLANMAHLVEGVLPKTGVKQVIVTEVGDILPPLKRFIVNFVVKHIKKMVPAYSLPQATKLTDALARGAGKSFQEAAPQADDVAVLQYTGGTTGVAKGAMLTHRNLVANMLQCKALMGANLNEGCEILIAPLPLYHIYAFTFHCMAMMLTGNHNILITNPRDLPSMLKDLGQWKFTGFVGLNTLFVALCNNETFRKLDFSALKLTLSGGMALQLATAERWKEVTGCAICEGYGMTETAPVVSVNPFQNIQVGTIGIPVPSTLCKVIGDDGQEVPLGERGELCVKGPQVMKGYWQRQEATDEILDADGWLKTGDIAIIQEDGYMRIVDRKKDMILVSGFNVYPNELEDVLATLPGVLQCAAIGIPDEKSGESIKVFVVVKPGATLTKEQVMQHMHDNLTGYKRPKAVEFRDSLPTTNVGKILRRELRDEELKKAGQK
The data set is described as follows: EMSA. As to conditions: recombinant protein, residues 1-562, protein details: His (Ni-NTA, TEV removal described), label: 3' biotin, probe letters rebuilt from the primers and the genome. On the technique in general: A gel shift assay detects complexes by their altered migration in electrophoresis.

For data set [2], the target named is FadD1 AMP-B domain (Pseudomonas aeruginosa PAO1) (UniProt Q9HYU4). Put plainly: EMSA. As to conditions: recombinant protein; residues 1-470; protein details: His; label: 3' biotin; probe letters rebuilt from the primers and the genome.

As for “AGAAGCTGCGCCGACCGGTGGTCAACGACCAGGTGCTGGCGCCGGTCTTCCTCGAGCAGGCCGAGGCCGTGCGCAAGGGCGACCAGGTGGTGATCCTCGCACGCACTGCCACCATCAACGTCAAGATGCCCGGCGAGGCGCTGTCCGATGGCGCCCCGGGCCAGCAGATCCGCGTGCGCAACCTGCGCTCGCAGCGGATAATCAAGGCCCGCGTGATAGAACCCGGCACGGTCGAGGTGAATATGTAGAGGGAAAGCCGTGGCCGGTAGCGCTGGCGCTACCCCGGCGGGTTTCTCTAAACTGGGAAACGACGCACGAAAATAAGTCCTAAAGTTTTTCAAGCCTTCGCCGAAAAGCTAGGCAAGCGTCCAATACCTTCGAGGTTTACAACCATGGTCATCGACTTCAACCGGCTGAAT (double strand) [flgM promoter]”, the binding result in data set [1] is recorded as “binds”.
For “CTGGGTATTCAGTTCGCATAAAATGTGATCTAGATCACATTTAAACGTTTGCTTACCCTCTAGGACGGGTATCGTACTAGGTGCATCAAACGCTGCGGTCTATTGTTAAGTGGGACTGAAATGTGCCTTTCCGGCACAACGCCAACTCTATAGAGTGGGCTGACTGGACATCTTCAGGGGTCGTCGGGCACGGGCGCATGCGCCTCGGCAGGAAGCCGGGATTCTCGGACTGCCGTACAACGTGCCGGATATCGGGTGCCGAATCCATATTTGGCTGATTGGTTAATAGTTTAAGAAGAACGTAGCGCTATGGCCTTGGTTGACGGTTTTCTTGAGCTG (double strand) [lasR promoter]”, the binding result in data set [2], in data set [1] (20 uM BDSF (enhances binding)), in data set [1] (cis-DA (enhances binding)) and in data set [1] was “binds” each time.
With “CGTAGAAGCTGCCGAATAAGGCATCTGCTGCACAAGAAACCGGGCCCAGGCCCGGTTTTTTTATTACCTGCCTTAAAGTTTTTATCTATCGGCTCGCTTTCTTTAATAAATTGGATTGTAGGAGGGCTGTCATTCATCCTTAACCTGCTTTTACGAAAAGCTACGTTCGGATAAGCGAGATCAATGCAAAGGGCGCTTGGTTCAGCCGACAGGTTGTCTTCCGCCAATCCCTGGTCCACGCTGATGATTTCCGTGTAGCCGCTTCGCTTCATAGCACGTTAGCCGTTGAGGAGAGAGTAAATGGAAGAGAAGACCCGCCTGACCACTGCC (double strand) [katA promoter]”, in data set [1], the binding result was “binds”.
